In US20110064668A1, “J-superfamily conotoxin peptides” (published 2011):

Experiments:
Experiment in all cases: cell-based or functional assay
[1] = molecular target: α3β4 subtype of rat neuronal nAChR (rat), P04757
[2] = molecular target: α1β1εδ subtype of mouse muscle nAChR (mouse), P04756
[3] = molecular target: Kv1.6 channel

B1: pl14a[K18A] (peptide)
peptide: FPRPRICNLACRAGIGHAYPFCHCR
modifications: not checked
IC50 [1]: 11.5 µM | IC50 [2]: 0.796 µM | IC50 [3]: 7.88 µM
